Results: US20100256070A1 (GENERAL HOSPITAL, published 2010)

Target: urokinase-like plasminogen activator receptor (uPAR/CD87) (UniProt Q03405 23-305)
Experiment: cell-based or functional assay

B1:  (other)
chain: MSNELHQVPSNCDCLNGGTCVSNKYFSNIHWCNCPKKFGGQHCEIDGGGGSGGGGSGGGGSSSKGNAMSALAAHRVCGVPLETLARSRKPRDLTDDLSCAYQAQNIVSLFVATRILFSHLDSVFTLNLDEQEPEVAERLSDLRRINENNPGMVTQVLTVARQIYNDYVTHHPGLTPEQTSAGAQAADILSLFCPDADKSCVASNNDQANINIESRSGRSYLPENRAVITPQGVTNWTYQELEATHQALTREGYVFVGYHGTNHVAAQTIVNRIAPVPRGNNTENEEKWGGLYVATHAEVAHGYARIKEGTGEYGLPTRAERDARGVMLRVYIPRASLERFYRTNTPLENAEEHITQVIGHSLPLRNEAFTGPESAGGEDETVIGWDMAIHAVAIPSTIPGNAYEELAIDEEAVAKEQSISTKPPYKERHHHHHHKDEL
  IC50 (killing of Jurkat cells): 0.4 nM
